Measured values from several laboratories, pooled; numbers as filed in NIAID ChemDB.

All rows: host cell toxicity; cell line: HeLa; endpoint: CC50

An empty or dashed field is not shown. CCn: concentration that lowers growth or viability of the cells by n%. Neighbouring rows are from separate reports. Two numbers with a dash give a range or band.

| compound | method | result |
|---|---|---|
| O=c1cc(-c2ccc3cc[nH]c3c2)c2cccnc2n1O | - | <100 µM |
| CS(=O)(=O)c1ccc(NCc2ccc(Cl)c(Cl)c2)nc1 | - | >10 µg/mL |
| CCSc1n[nH]c(-c2cccc([N+](=O)[O-])c2C)n1 | - | 7.4 µg/mL |
| CC(=O)Nc1ccc(Cc2ccc(S(C)(=O)=O)cn2)cc1 | - | >10 µg/mL |
| N#CC(N)=NCCN=C(N)NC(N)=[NH+]CCCCCCCCCC[NH+]=C(N)NC(N)=NCCN.[Cl-].[Cl-] | MTT | 262 µM |
| Cc1cn([C@H]2C[C@H](O[Si](C)(C)C(C)(C)C)[C@@H](/C=C/C#N)O2)c(=O)[nH]c1=O | - | 50–100 µM |
| CC(C)S(=O)(=O)c1ccc(Cc2ccc(Cl)c(Cl)c2)nc1 | - | 10 µg/mL |
| CCOC(=O)c1ccc(OCCC2CCN(c3ccc(C)nn3)CC2)cc1 | - | 150 µM |
| C=C(C)[C@@H]1CC[C@@]2(CO)C1C1CCC3[C@@]4(C)CC[C@@H](O)C(C)(C)C4CC[C@@]3(C)[C@]1(C)C[C@@H]2O | - | >10 µM |
| CC1=C(C(=O)O)C(c2ccccc2)NC(=O)N1 | XTT | >100 µM |
| C[C@H]1NCc2cc(-c3c(F)cc4c(=O)c(C(=O)O)cn(C5CC5)c4c3OC(F)F)ccc21 | - | 177 µg/mL |
| C=CCc1nc(C)n2c(=O)[nH]cnc12 | - | >400 µg/mL |
| C#CCSc1n[nH]c(-c2ccc(C(F)(F)F)cc2)n1 | - | 6.22 µg/mL |
| Cc1nc(C(C)C)c2[nH]c(=S)[nH]c(=O)n12 | - | >400 µg/mL |
| CCn1nc(CC(=O)N/N=C/c2ccco2)nc1C | - | >400 µg/mL |
| COc1ccc(-c2ccncc2)cc1-c1cc(=O)n(O)c2ncccc12 | - | <100 µM |
| Cc1ccc(Cc2ccc(S(C)(=O)=O)cn2)cc1 | - | >10 µg/mL |
| O=C(OC1CCCCC1)c1nc(-c2ccccn2)[nH]c(=O)c1O | luminescence | >50 µM |
| CS(=O)(=O)c1ccc(NCc2ccc(C(F)(F)F)cc2)nc1 | - | >10 µg/mL |
| Cc1nc(CC(=O)NN)nn1C | - | >400 µg/mL |
| C=CCSc1n[nH]c(-c2cccc(C(F)(F)F)c2)n1 | - | 13.78 µg/mL |
| COc1ccc(NC(=O)c2c(O)c3cccnc3n(O)c2=O)cn1 | - | <100 µM |
| Cc1cc(-c2nc(C(=O)N[C@H](C)C3CCCCC3)c(O)c(=O)[nH]2)nc2ccccc12 | luminescence | >5.37 µM |
| O=c1cc(NCc2ccc(F)cc2)c2cccnc2n1O | - | <100 µM |
| CCn1nc(CC(=O)NN=C(C)C)nc1C | - | >400 µg/mL |
| CC(=O)Nc1nc2c(CC(O)CO)ncn2c(=O)[nH]1 | - | 200 µg/mL |
| CC1=C(C(=O)OCc2ccccc2)C(c2ccc([N+](=O)[O-])cc2)NC(=O)N1 | XTT | >100 µM |
| C#CCSc1n[nH]c(-c2cccc([N+](=O)[O-])c2C)n1 | - | 16.37 µg/mL |
| N#CC(N)=NCCN=C(N)NC(N)=[NH+]CCCCCCCCCCCC[NH+]=C(N)NC(N)=NCCN.[Cl-].[Cl-] | MTT | 244 µM |
| CC1=C(C(=O)OCc2ccccc2)C(c2ccc(F)cc2)NC(=O)N1 | XTT | >100 µM |
| COc1c(N2CCNC(C)C2)ccc2c(=O)c(C(=O)O)cn(C3CC3)c12 | - | 301 µg/mL |
| NS(=O)(=O)c1cccc(-c2cc(=O)n(O)c3ncccc23)c1 | - | <100 µM |
| COc1c(N2CCNC(C)C2)c(F)cc2c(=O)c(C(=O)O)cn(C3CC3)c12 | - | 252 µg/mL |
| C[C@@H](NC(=O)c1nc(-c2cccc(C(F)(F)F)n2)[nH]c(=O)c1O)C1CCCCC1 | luminescence | >50 µM |
| CS(=O)(=O)c1ccc(Cc2ccc(Sc3ccccc3)cc2)nc1 | - | 2.5 µg/mL |
| CCSc1n[nH]c(-c2cccc(C(F)(F)F)c2)n1 | - | 7.07 µg/mL |
| CC1=C(C(=O)O)C(c2ccco2)NC(=O)N1 | XTT | >100 µM |
| Cc1nc(Cc2n[nH]c(=S)n2-c2ccccc2)nn1C | - | 400 µg/mL |
| Br.CN1C=CN(c2cccc(N3C=CN(C)C3)n2)C1 | sulforhodamine / absorbance | >30 µM |
| COc1ccc(-n2c(Cc3nc4n(n3)CCCC4)n[nH]c2=S)cc1 | - | 400 µg/mL |
| CN1CCCC(CNC(=O)c2nc(-c3ccccn3)[nH]c(=O)c2O)C1 | luminescence | >50 µM |
| NC(N)=NC(N)=Nc1ccccc1 | MTT | 8470 µM |
| O=c1cc(-c2cccc(O)c2)c2cccnc2n1O | - | <100 µM |
| Cc1nc(CC(O)CO)c2nc[nH]c(=O)n12 | - | >400 µg/mL |